# Experimental data reported in US6369208B1, “Capped synthetic RNA, analogs, and aptamers” (Merck & Co., Inc., priority 1995, dated 2002).
# By UniProt entry, the sequences of proteins in these tests, tags left out. Where a name states a change or a piece, a line headed by the entry shows the natural chain unless it says otherwise.
# UniProt P03428: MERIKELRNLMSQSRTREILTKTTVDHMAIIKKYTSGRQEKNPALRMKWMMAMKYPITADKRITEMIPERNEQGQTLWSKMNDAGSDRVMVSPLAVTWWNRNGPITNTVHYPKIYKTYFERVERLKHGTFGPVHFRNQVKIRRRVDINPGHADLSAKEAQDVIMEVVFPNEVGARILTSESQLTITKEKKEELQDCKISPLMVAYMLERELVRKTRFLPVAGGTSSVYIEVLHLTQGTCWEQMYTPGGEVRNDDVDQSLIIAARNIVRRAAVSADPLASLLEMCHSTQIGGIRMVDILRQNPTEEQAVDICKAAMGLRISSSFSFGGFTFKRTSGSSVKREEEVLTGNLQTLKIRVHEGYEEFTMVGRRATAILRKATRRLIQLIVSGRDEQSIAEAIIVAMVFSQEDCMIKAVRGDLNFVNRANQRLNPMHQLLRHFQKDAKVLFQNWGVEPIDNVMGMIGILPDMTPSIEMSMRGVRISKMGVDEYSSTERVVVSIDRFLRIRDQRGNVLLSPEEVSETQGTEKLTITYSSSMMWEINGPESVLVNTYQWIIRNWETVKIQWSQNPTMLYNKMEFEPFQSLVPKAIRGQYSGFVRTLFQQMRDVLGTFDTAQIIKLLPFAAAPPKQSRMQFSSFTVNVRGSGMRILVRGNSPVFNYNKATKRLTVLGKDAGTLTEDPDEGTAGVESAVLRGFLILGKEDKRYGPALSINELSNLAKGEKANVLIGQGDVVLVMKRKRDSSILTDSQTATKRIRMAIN
# Columns and labels:
# [1] = target: T1, influenza endonuclease (Influenza A virus, UniProt P03428+P03433)
# [2] = target: T1, influenza endonuclease; remark: listed apart in the source
substance,measurement,setting,value
m^7GpppG(2′-OMe)UAUUAAUA(3′-dA)-3′ [SEQ.ID.NO.:3],IC50,[1],83 pM
same,Kd,[2],170 pM
